Measurements reported in patent US20240109955A1 (published 2024).

Assays:
Assay in all cases: cell-based or functional assay
[1] = molecular target: SARS-CoV-2 Omicron BQ.1 spike protein (SARS-CoV-2)
[2] = molecular target: SARS-CoV-2 Omicron XBB1.5 spike protein (SARS-CoV-2)
[3] = molecular target: SARS-CoV-2 Omicron BA.4/5 spike protein (SARS-CoV-2)
[4] = molecular target: SARS-CoV-2 Omicron CH.1.1 spike protein (SARS-CoV-2)
[5] = molecular target: SARS-CoV-2 Omicron BQ.1.1 spike protein (SARS-CoV-2)
[6] = molecular target: SARS-CoV-2 Omicron BA.2.75.2 spike protein (SARS-CoV-2)
[7] = molecular target: SARS-CoV-2 Omicron XBB spike protein (SARS-CoV-2)
[8] = molecular target: SARS-CoV-2 Omicron BA.4.6 spike protein (SARS-CoV-2)
[9] = molecular target: SARS-CoV-2 Omicron BF.7 spike protein (SARS-CoV-2)
[10] = molecular target: SARS-CoV-2 spike (S) protein, Omicron sublineage BA.2.75.2 (SARS-CoV-2)
[11] = molecular target: SARS-CoV-2 spike (S) protein, Omicron sublineage XBB (SARS-CoV-2)
[12] = molecular target: SARS-CoV-2 Omicron BF.7 spike protein (SARS-CoV-2, UniProt P0DTC2 14-1273)
[13] = molecular target: SARS-CoV-2 Omicron BA.4.6 spike protein (SARS-CoV-2, UniProt P0DTC2 14-1273)
[14] = molecular target: SARS-CoV-2 Omicron XBB spike protein (SARS-CoV-2, UniProt P0DTC2 14-1273)
[15] = molecular target: SARS-CoV-2 Omicron BA.4/5 spike protein (SARS-CoV-2, UniProt P0DTC2 14-1273)
[16] = molecular target: SARS-CoV-2 Omicron BQ.1.1 spike protein (SARS-CoV-2, UniProt P0DTC2 14-1273)
[17] = molecular target: SARS-CoV-2 Omicron BA.2.75.2 spike protein (SARS-CoV-2, UniProt P0DTC2 14-1273)

B1: MX1042 (bispecific antibody)
chain: DTVMTQSPLSLPVTPGEPASISCRSSQSLLNSNGYNYLDWYVQKPGQSPQLLIYLGSNRASGVPDRFSGSGSGTDFTLKISRVEAEDVGVYYCMQPLQTPLFTFGPGTKVEIKGGSSGEIVLTQSPGTLSLSPGETATLSCRASQSFSSDLAWYQQKPGQAPRLLIYGASSRATGIPDRFSGSGSGTDFTLTISRLEPADFAVYYCQQYGSSPPVTFGGGTKVEIKGGGGSGGSGSGGGGSASGSGEVQLVESGGGLIQPGGSLRLSCAASGVIVSYNYMNWVRQAPGKGLEWVSVIYSGGSTFYADSVRGRFTISRDNSKNTLYLQMNSLRAEDTAVYYCARDLGPAGAFDIWGLGTMVTVSSGGSSGQVTLRESGPALVKPTQTLTLTCTFSGFSLSTRGVCVSWIRQPPGKALEWLAFIDWDDDKYYNTSLKTRLTISKDTSKNQVVLTMTNVHPVDTATYYCARISSHHGSSWCTTFDYWGQGALVTVSAASGGSGDKTHTCPPCPAPELLGGPSVFLFPPKPKDTLMISRTPEVTCVVVDVSHEDPEVKFNWYVDGVEVHNAKTKPREEQYNSYVVSVLTVLHQDWLNGKEYKCKVSNKALPAPIEKTISKAKGQPREPQVYTLPPSRDELTKNQVSLTCLVKGFYPSDIAVEWESNGQPENNYKTTPPVLDSDGSFFKKLTVDKSRWQQGNVFSCSVLHEALHSHYTQKSLSLSPG
- IC50, pseudovirus neutralization [1]: 11.9 ng/mL
- IC80, pseudovirus neutralization [1]: 27.4 ng/mL
- IC50, pseudovirus neutralization [2]: 41.8 ng/mL
- IC80, pseudovirus neutralization [2]: 81.5 ng/mL
- IC50, pseudovirus neutralization [3]: 1.37 ng/mL
- IC80, pseudovirus neutralization [3]: 2.75 ng/mL
- IC50, pseudovirus neutralization [4]: 46.2 ng/mL
- IC80, pseudovirus neutralization [4]: 158 ng/mL
- IC50, pseudovirus neutralization [5]: 0.29 ng/mL
- IC80, pseudovirus neutralization [5]: 3.5 ng/mL
- IC50, pseudovirus neutralization [6]: 0.01 ng/mL
- IC80, pseudovirus neutralization [6]: 0.05 ng/mL
- IC50, pseudovirus neutralization [7]: 7.55 ng/mL
- IC80, pseudovirus neutralization [7]: 16.5 ng/mL
- IC50, pseudovirus neutralization [8]: 2.1 ng/mL
- IC80, pseudovirus neutralization [8]: 4.51 ng/mL
- IC80, pseudovirus neutralization [9]: 6.74 ng/mL

B2: A46 + E12 + B8 + E8 (other)
VH 1: QVQLVESGGGVVQPGRSLRLSCAASGFTLSSYGMHWVRQAPGKGLEWVAVISYDGSNKYYVDSVKGRFTISRDNSKNTLYLQMNSLRAEDTAVYYCRWAYWELLPDYYYGMDVWGQGTTVTVSS
VL 1: QTVVTQEPSFSVSPGGTVTLTCGLSSGSVSTAYFPSWYQQTPGQAPRTLIYGTNTRSSGVPDRFSGSILGNKAALTITGAQADDESDYYCVLYMGRGIVVFGGGTKLTVL
VH 2: EVQLVESGGGLIQPGGSLRLSCAASGVIVSYNYMNWVRQAPGKGLEWVSVIYSGGSTFYADSVRGRFTISRDNSKNTLYLQMNSLRAEDTAVYYCARDLGPAGAFDIWGLGTMVTVSS
VL 2: EIVLTQSPGTLSLSPGETATLSCRASQSFSSDLAWYQQKPGQAPRLLIYGASSRATGIPDRFSGSGSGTDFTLTISRLEPADFAVYYCQQYGSSPPVTFGGGTKVEIK
VH 3: EVQLVESGGALIQPGGSLRLSCAASGIIVSANYMSWVRQAPGKGLEWVSVIYSGGSTFYADSVKGRFTISRDNSKNTLYLEMNSLRAEDTAVYYCARDAPILGVSDWGQGTLVTVSS
VL 3: EIVMTQSPAILSVSPGERATLSCRASQSVAINLAWYQQKPGQAPRLLIYAASSRATGIPGRFSGSGSETNFTLTISSLQSGDFAVYYCQQYITWPPSYTFGQGTKLEIK
VH 4: QVTLRESGPALVKPTQTLTLTCTFSGFSLSTRGVCVSWIRQPPGKALEWLAFIDWDDDKYYNTSLKTRLTISKDTSKNQVVLTMTNVHPVDTATYYCARISSHHGSSWCTTFDYWGQGALVTVSA
VL 4: DTVMTQSPLSLPVTPGEPASISCRSSQSLLNSNGYNYLDWYVQKPGQSPQLLIYLGSNRASGVPDRFSGSGSGTDFTLKISRVEAEDVGVYYCMQPLQTPLFTFGPGTKVEIK
- IC80, pseudovirus neutralization [10]: 6.93 nM
- IC50, pseudovirus neutralization [11]: 5.95 nM
- IC80, pseudovirus neutralization [11]: 16.6 nM

B3: MX1018 (antibody)
chain: EIVMTQSPAILSVSPGERATLSCRASQSVAINLAWYQQKPGQAPRLLIYAASSRATGIPGRFSGSGSETNFTLTISSLQSGDFAVYYCQQYITWPPSYTFGQGTKLEIKGGSSGEIVMTQSPAILSVSPGERATLSCRASQSVAINLAWYQQKPGQAPRLLIYAASSRATGIPGRFSGSGSETNFTLTISSLQSGDFAVYYCQQYITWPPSYTFGQGTKLEIKGGGGSGGSGSGGGGSASGSGEVQLVESGGALIQPGGSLRLSCAASGIIVSANYMSWVRQAPGKGLEWVSVIYSGGSTFYADSVKGRFTISRDNSKNTLYLEMNSLRAEDTAVYYCARDAPILGVSDWGQGTLVTVSSGGSSGEVQLVESGGALIQPGGSLRLSCAASGIIVSANYMSWVRQAPGKGLEWVSVIYSGGSTFYADSVKGRFTISRDNSKNTLYLEMNSLRAEDTAVYYCARDAPILGVSDWGQGTLVTVSSASGGSGDKTHTCPPCPAPELLGGPSVFLFPPKPKDTLMISRTPEVTCVVVDVSHEDPEVKFNWYVDGVEVHNAKTKPREEQYNSYVVSVLTVLHQDWLNGKEYKCKVSNKALPAPIEKTISKAKGQPREPQVYTLPPSRDELTKNQVSLTCLVKGFYPSDIAVEWESNGQPENNYKTTPPVLDSDGSFFKKLTVDKSRWQQGNVFSCSVLHEALHSHYTQKSLSLSPG
- IC50, pseudovirus neutralization [12]: 6.6 ng/mL
- IC80, pseudovirus neutralization [12]: 20.1 ng/mL
- IC50, pseudovirus neutralization [13]: 4.09 ng/mL
- IC80, pseudovirus neutralization [13]: 11 ng/mL
- IC50, pseudovirus neutralization [14]: 6.6 ng/mL
- IC80, pseudovirus neutralization [14]: 20.1 ng/mL
- IC50, pseudovirus neutralization [15]: 10.7 ng/mL
- IC80, pseudovirus neutralization [15]: 58.1 ng/mL
- IC50, pseudovirus neutralization [16]: 4.33 ng/mL
- IC80, pseudovirus neutralization [16]: 11.9 ng/mL
- IC50, pseudovirus neutralization [17]: 4.09 ng/mL
- IC80, pseudovirus neutralization [17]: 11 ng/mL
